Results of unrelated studies side by side (data: NIAID ChemDB).

All rows: tests in culture; species: HIV-1; endpoint: EC95

Blank or dashed fields: not listed here. ECn is the concentration giving n% inhibition of infection, replication or growth. Neighbouring rows are from separate reports.

smiles | strain | mutations | cell line | read by | setting | result
CC(=O)c1sccc1NC(=O)CSc1nnnn1-c1c(C)cc(C)cc1C |  |  | MT-4 | p24 |  | <10 µM
CCCc1nnc(C[C@H](C[C@H](O)CN2CCN(C(C)(C)c3ncc(-c4ccc(F)cc4)o3)C[C@H]2C(=O)NCC(F)(F)F)C(=O)N[C@H]2c3ccccc3OC[C@H]2O)o1 | NL4-3 WT |  | MT-4 | p24 |  | 0.016 µM
Cc1cccc(Cl)c1-n1nnnc1SCC(=O)Nc1ccccc1Cl |  |  | MT-4 | p24 |  | <10 µM
O=C(N[C@H]1c2ccccc2OC[C@H]1O)[C@H](Cc1nnc(-c2ccccc2)o1)C[C@H](O)CN1CCN(Cc2ccc(-c3ccc(Cl)cc3)o2)C[C@H]1C(=O)NCC(F)(F)F | Q-60 Clinical isolate | PR-L10I N37S R41K M46I I54V I62V L63P A71V V77I V82A L90M I93L | MT-4 | p24 |  | 0.063 µM
CC(C)CN(C[C@@H](O)[C@H](Cc1ccccc1)NC(=O)[C@H](CC(N)=O)NC(=O)c1ccc2ccccc2n1)C(=O)NC(C)(C)C | NL4-3 | PR-L10R L63P | MT-4 | p24 |  | 0.2 µM
CC(C)(C)NC(=O)[C@@H]1CN(C(C)(C)c2cc3cnccc3o2)CCN1C[C@@H](O)C[C@@H](Cc1ccccc1)C(=O)N[C@H]1c2ccccc2C[C@H]1O | Q-60C(PR-L10I S37N R41K M46I I54V I62V L63P A71V V77I V82A L90M I93L) | PR-L10I S37N R41K M46I I54V I62V L63P A71V V77I V82A L90M I93L |  |  |  | >1 µM
CC(C)(c1ncc(-c2ccc(F)cc2)o1)N1CCN(C[C@@H](O)C[C@@H](Cc2nnco2)C(=O)N[C@H]2c3ccccc3OC[C@H]2O)[C@H](C(=O)NCC(F)(F)F)C1 | NL4-3 WT |  | MT-4 | p24 |  | 0.125 µM
CC(C)(C)NC(=O)[C@@H]1C[C@@H]2CCCC[C@@H]2CN1C[C@@H](O)[C@H](Cc1ccccc1)NC(=O)[C@H](CC(N)=O)NC(=O)c1ccc2ccccc2n1 | NL4-3 | PR-V82T | MT-4 | p24 |  | 0.025 µM
CCc1cc(CCc2nc3ccccc3o2)c(=S)[nH]c1C | IIIB |  | H9 | p24 |  | 0.1 µM
Cc1ccnc2c1NC(=O)c1cccnc1N2C1CC1 |  | RT-M41L T215Y | MT-4 |  |  | 0.2 µM
COc1cncc(-c2cnc(C(C)(C)N3CCN(C[C@@H](O)C[C@@H](Cc4nnc(C)o4)C(=O)N[C@H]4c5ccccc5OC[C@H]4O)[C@H](C(=O)NCC(F)(F)F)C3)o2)c1 | NL4-3 WT |  | MT-4 | p24 |  | >1 µM
c1ccc(CSc2nnnn2-c2cccc3ccccc23)nc1 |  |  | MT-4 | p24 |  | <10 µM
Cc1cc(SC2=C(O)CC(CCc3cccc(O)c3)(C3CCCC3)OC2=O)c(C(C)(C)C)cc1CO |  |  | CEM | cytopathic effect / XTT |  | <0.3 µM
Cc1cc(C)c(-n2nnnc2SCC(=O)Nc2cccc(F)c2F)c(C)c1 |  |  | MT-4 | p24 |  | <10 µM
CCc1cc(NCc2nc3c(C)ccc(C)c3o2)c(=O)[nH]c1C | A018A/H112-2 |  | CEM | p24 | clinical isolate | 0.025 µM
CCCc1nnc(C[C@H](C[C@H](O)CN2CCN(Cc3ccc(-c4ccc(Cl)cc4)o3)C[C@H]2C(=O)NCC(F)(F)F)C(=O)N[C@H]2c3ccccc3OC[C@H]2O)o1 | K-60 Clinical isolate | PR-L10I M46I I54V Q58E L63P I64V V77I V82F I84V L90M I93L | MT-4 | p24 |  | ≤0.008 µM
CCc1cc(CCc2nc3c(Cl)ccc(Cl)c3o2)c(=O)[nH]c1C | IIIB |  | H9 | p24 |  | 0.025 µM
Cc1cc(C)c(-n2nnnc2SCC(=O)Nc2ccc(C)cc2Cl)c(C)c1 |  |  | MT-4 | p24 |  | <10 µM
O=C(N[C@H]1c2ccccc2OC[C@H]1O)[C@H](Cc1nnco1)C[C@H](O)CN1CCN(Cc2ccc(-c3ccc(Cl)cc3)o2)C[C@H]1C(=O)NCC(F)(F)F | V-18 Clinical isolate | PR-L10I M36I N37D M46I R57K L63P A71V G73S I84V L90M I93L | MT-4 | p24 |  | 0.125 µM

The first 2 rows once more:

smiles | strain | mutations | cell line | read by | setting | result
CC(=O)c1sccc1NC(=O)CSc1nnnn1-c1c(C)cc(C)cc1C |  |  | MT-4 | p24 |  | <10 µM
CCCc1nnc(C[C@H](C[C@H](O)CN2CCN(C(C)(C)c3ncc(-c4ccc(F)cc4)o3)C[C@H]2C(=O)NCC(F)(F)F)C(=O)N[C@H]2c3ccccc3OC[C@H]2O)o1 | NL4-3 WT |  | MT-4 | p24 |  | 0.016 µM